From the NIST ThermoML archive (doi:10.1016/j.fluid.2014.05.010) come the findings set out here.

SMILES strings stand for the structures. Numbers after ± are expanded uncertainties.

For this series the following is noted: 101.33 kPa, Liquid, Vibrating tube method.

Consider `CCC[N+](C)(CC)CC.O=S(=O)(F)[N-]S(=O)(=O)F`, for which the mass density came to 1302.93 ± 1 kg/m3 (278.15 K); 1299.07 ± 1 kg/m3 (283.15 K); 1295.18 ± 1 kg/m3 (288.15 K); 1291.32 ± 1 kg/m3 (293.15 K); 1287.47 ± 1 kg/m3 (298.15 K); 1283.63 ± 1 kg/m3 (303.15 K). For the same compound, the mass density is, setting by setting: (308.15 K) 1279.61 ± 1 kg/m3; (313.15 K) 1275.77 ± 1 kg/m3; (318.15 K) 1271.01 ± 1 kg/m3; (323.15 K) 1267.53 ± 1 kg/m3; (328.15 K) 1264.67 ± 1 kg/m3; (333.15 K) 1259.93 ± 1 kg/m3. Further, the mass density amounted to 1254.21 ± 1 kg/m3 (338.15 K), 1251.49 ± 1 kg/m3 (343.15 K), 1247.1 ± 1 kg/m3 (348.15 K) and 1246.11 ± 1 kg/m3 (353.15 K).

Take `CCC[N+]1(C)CCCCC1.O=S(=O)(F)[N-]S(=O)(=O)F` [1-methyl-1-propylpiperidinium bis(fluorosulfonyl)imide]: the mass density (278.15 K) was 1336.17 ± 1 kg/m3; the mass density (283.15 K) turned out to be 1332.19 ± 1 kg/m3; the mass density (288.15 K) amounted to 1328.29 ± 1 kg/m3; the mass density (293.15 K) is 1324.44 ± 1 kg/m3; the mass density (298.15 K) was 1320.58 ± 1 kg/m3; the mass density (303.15 K) came out at 1316.72 ± 1 kg/m3. Further, the mass density reads like this: (308.15 K) 1312 ± 1 kg/m3; (313.15 K) 1308.09 ± 1 kg/m3; (318.15 K) 1304.8 ± 1 kg/m3; (323.15 K) 1300.04 ± 1 kg/m3; (328.15 K) 1297.11 ± 1 kg/m3; (333.15 K) 1292.38 ± 1 kg/m3. The mass density (338.15 K) is reported as 1288.66 ± 1 kg/m3, the mass density (343.15 K) came out at 1284.35 ± 1 kg/m3, the mass density (348.15 K) was determined as 1280 ± 1 kg/m3 and the mass density (353.15 K) was 1277.58 ± 1 kg/m3.

For `CCC[N+]1(C)CCCC1.O=S(=O)(F)[N-]S(=O)(=O)F` [1-methyl-1-propylpyrrolidinium bis(fluorosulfonyl)amide], the mass density (278.15 K) was 1355.55 ± 1 kg/m3; the mass density (283.15 K) is recorded as 1351.48 ± 1 kg/m3; the mass density (288.15 K) is 1347.41 ± 1 kg/m3; the mass density (293.15 K) was found to be 1343.37 ± 1 kg/m3; the mass density (298.15 K) stood at 1339.33 ± 1 kg/m3; the mass density (303.15 K) came to 1335.34 ± 1 kg/m3. Further, the mass density is reported as 1331.36 ± 1 kg/m3 (308.15 K); 1326.23 ± 1 kg/m3 (313.15 K); 1323.45 ± 1 kg/m3 (318.15 K); 1319.53 ± 1 kg/m3 (323.15 K); 1315.63 ± 1 kg/m3 (328.15 K); 1311.75 ± 1 kg/m3 (333.15 K). Further, the mass density (338.15 K) amounted to 1307.88 ± 1 kg/m3, the mass density (343.15 K) is 1304.04 ± 1 kg/m3, the mass density (348.15 K) was determined as 1300.21 ± 1 kg/m3 and the mass density (353.15 K) was 1296.41 ± 1 kg/m3.

By mass density is commonly meant mass per unit of volume.
